Test results as given in PubChem BioAssay AID540267 (National Center for Advancing Translational Sciences (NCATS), 2011).
Only a part is listed here, and it is no random draw. Active and inactive are the calls of the source. Cut-off read from the data, not from the text of the source: active = activity change below about -80%; inconclusive = between about -30% and that limit; inactive = weaker than that.

Assay: Small Molecules that selectively kill Giardia lamblia: qHTS;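 note: parasites exposed to compound for two days anaerobically before the ATP read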
Details: Giardia lamblia trophozoite viability; at 7.66 µM; hits give low values
Source text: Giardia lamblia is a human pathogen afflicting impoverished nations, and the most common cause of outbreaks of diarrhea in the United States. Giardia has been classified by the CDC as a category B bioterrorism organism. The favored anti giardiasis drugs in the US are metronidazole or tinidazole, compounds that have undesirable side effects. Moreover, increasing resistance to drug regimes and recurrence are a concern. It is thus clear that alternative drug treatments are needed.
In a collaboration between the University of Maryland, College Park and the NIH Chemical Genomics Center, a bioluminescence Giardia viability assay based on the trophozoites' ATP content was developed. This assay is suitable for high throughput screening, and miniaturized the assay for compound screening in 1536-well plates. The goal of the project is to screen the Molecular Libraries Small Molecule Repository (MLSMR) for compounds that selectively kill Giardia trophozoites.
NIH Chemical Genomics Center [NCGC]
NIH Molecular Libraries Probe Centers Network [MLPCN]
Assay Submitter (PI): Osnat Herzberg, University of Maryland, College Park, MD.
1. Dispense 2 ul/well media
2. Dispense 23 nl/well compounds
3. Dispense 4 ul/well Giardia trophozoites at a concentration of 100 cells/well
4. Incubate 48 hrs at 37 deg C anaerobically
5. Dispense 4 ul/well ATPLite 1-Step Luminescence assay kit
6. Incubate 15-30 min at room temperature
7. Read luminescence signal on ViewLux plate reader
% is set by controls: 0 for no effect and ±100 for the full control effect.

Row | SMILES | activity change
1 | N#CC1(Nc2ccccc2)CCN(Cc2ccccc2)CC1 | inactive: 16.5%
2 | O=C(OC1CN2CCC1CC2)C1c2ccccc2Oc2ccccc21 (centres undefined) | inactive: -3.27%
3 | COc1ccc(Cl)cc1C(=O)NCC1(N2CCOCC2)CCCCC1 | inactive: -0.696%
4 | O=C1C(O)=C([N+](=O)[O-])C(=O)C(O)=C1[N+](=O)[O-] | inactive: 11.4%
5 | COc1ccc(C(=O)NCC2(N3CCCCC3)CCCCC2)cc1 | inactive: 10.3%
6 | COc1ccc(C(=O)NCC2(N3CCCCC3)CCCCC2)c(OC)c1OC | inactive: 4.96%
7 | CC(C)(C)OC(=O)N1CCC(N(C(=O)c2ccccc2)c2ccc(F)cc2)CC1 | inactive: 40.1%
8 | O=C(NCC1(N2CCCCC2)CCCCC1)c1ccc(=O)[nH]c1 | inactive: -12.4%
9 | O=C(NCC1(N2CCCCC2)CCCCC1)c1cccs1 | inactive: 0.609%
10 | CSc1ccccc1C(=O)NCC1(N2CCCCC2)CCCCC1 | inactive: -3%
11 | Cc1cccc(NC2(C#N)CCN(Cc3ccccc3)CC2)c1 | inactive: -10.2%
12 | CCOC(=O)N1CCC(Nc2cccc(C)c2)CC1 | inactive: -17.6%
13 | COc1cc(C(=O)NCC2(N(C)C)CCCCC2)ccc1OC(F)F | inactive: 14.4%
14 | O=C1CCN(Cc2ccccc2)CC1 | inactive: -3.41%
15 | CCOc1ccc(C)cc1CN(CCCl)CCCl | inactive: -3.99%
16 | O=P1(N(CCCl)CCCl)SCCCS1 | inactive: -14.9%
17 | CCCCOc1ccc(C(=O)NCC2(N3CCOCC3)CCCCC2)cc1 | inactive: 0.689%
18 | O=C(NCC1(N2CCCCC2)CCCCC1)c1ccc(F)cc1 | inactive: 14.7%
19 | COc1ccc(NC2CCN(CCc3ccccc3)CC2)c(OC)c1 | inactive: -3.3%
20 | CCOC(=O)N1CCC(Nc2ccc(F)cc2)CC1 | inactive: -3.96%
21 | Cc1ccccc1NC1(C#N)CCN(Cc2ccccc2)CC1 | inactive: -17.3%
22 | CCN1CCC(Nc2cccc(F)c2)CC1 | inactive: 14.6%
23 | O=C(NCC1(N2CCCCC2)CCCCC1)c1ccco1 | inactive: 3.73%
24 | CN(C)c1ccc(C(=O)NCC2(N3CCCCC3)CCCCC2)cc1 | inactive: 4.22%
25 | Cn1c(=O)[nH]cc(N(CCCl)CCCl)c1=O | inactive: -14.7%
26 | CC(=O)N(c1ccccc1)C1CCNCC1 | inactive: 57.5%
27 | COc1cc(OC)cc(C(=O)NCC2(N3CCCCC3)CCCCC2)c1 | inactive: -10.3%

Row | SMILES | activity change
28 | Cc1ccc(C(=O)NCC2(N3CCCCC3)CCCCC2)o1 | inactive: 1.8%
29 | Fc1ccccc1NC1CCN(Cc2ccccc2)CC1 | inactive: 3.01%
30 | Cc1ccc(NC2(C#N)CCN(Cc3ccccc3)CC2)cc1 | inactive: 2.34%
31 | COc1cc(OC)cc(C(=O)NCC2(N3CCOCC3)CCCCC2)c1 | inactive: 14.3%
32 | COc1cccc(C(=O)N(c2cc(C)cc(C)c2)C2CCN(C(=O)OC(C)(C)C)CC2)c1 | inactive: 11.9%
33 | CCC(CO)(C(=O)OC1CN2CCC1CC2)c1ccccc1 (centres undefined) | inactive: 11.9%
34 | CN1CCC(Nc2ccc(Cl)cc2)CC1 | inactive: -3.72%
35 | CCOc1ncccc1C(=O)NCC1(N2CCOCC2)CCCCC1 | inactive: -2.52%
36 | CN1CCC(Nc2ccc(F)c(Cl)c2)CC1 | inactive: 0.117%
37 | CC(C)(C)OC(=O)N1CCC(Nc2ccccc2)CC1 | inactive: 1.88%
38 | O=C(O)C1(Nc2ccccc2)CCN(Cc2ccccc2)CC1 | inactive: -17.7%
39 | CCCOc1ccc(C(=O)NCC2(N(C)C)CCCCC2)cc1 | inactive: -10.2%
40 | CCOC(=O)N1CCC(Nc2ccc(C)cc2)CC1 | inactive: 6.01%
41 | N/C(=N\O)c1c(N)no[n+]1[O-] | inactive: 11.7%
42 | CCc1cc(C(=O)NCC2(N3CCCCC3)CCCCC2)sc1C | inactive: 19.3%
43 | O=C(OC1CN2CCC1CC2)C1c2ccccc2C=Cc2ccccc21 (centres undefined) | inactive: -8.24%
44 | O=C(O)c1cccc(Nc2c([N+](=O)[O-])cc([N+](=O)[O-])cc2[N+](=O)[O-])c1 | inactive: -13.2%
45 | COc1cc(C(=O)NCC2(N3CCOCC3)CCCCC2)cc(OC)c1C | inactive: -6.85%
46 | O=C(NCC1(N2CCOCC2)CCCCC1)c1cc(Br)ccc1Cl | inactive: 0.962%
47 | COc1ccc(C(=O)NCC2(N3CCOCC3)CCCCC2)cc1OC | inactive: 28.7%
48 | CN(C)C1(CNC(=O)c2cccc(C#N)c2)CCCCC1 | inactive: 7.11%
49 | c1ccc(CN2CCC(Nc3ccccc3)CC2)cc1 | inactive: 29.4%
50 | CCCN1CCC(Nc2cc(OC)cc(OC)c2)CC1 | inactive: -0.571%
51 | Cc1cc(N(CCCl)CCCl)ccc1C=O | inactive: 5.23%
52 | N#Cc1ccc(C(=O)NCC2(N3CCCCC3)CCCCC2)cc1 | inactive: -2.16%
53 | CC(C)(C)OC(=O)N1CCC(N(C(=O)c2ccccc2)c2ccc(Cl)cc2)CC1 | inactive: -15.6%
54 | CCOC(=O)C(CC)C1=NC(C)(C)Cc2ccccc21.O=[N+]([O-])c1cc([N+](=O)[O-])c(O)c([N+](=O)[O-])c1 (centres undefined) | inactive: -16.2%
